Pooled drug test results. Numbers come from NIAID ChemDB, via PubChem.

Shared fields: enzyme or target tests; agent: HIV-1; target: Protease; measure: inhibition

An empty or dashed field is not shown. Rows are shuffled and stem from different studies. Inhibition is in % at the dose shown (toxicity tests: loss of growth or viability).

SMILES,strain,read by,tested at,value
CC(C)(CC(=O)O)CC(=O)N[C@@H](Cc1ccccc1)[C@H](O)C(=O)N1CSC[C@H]1C(=O)NC(C)(C)C,,,5 µM,50%
O=C(CCc1ccccc1)c1c(O)cc(O)cc1O,,HPLC,100 µM,7.5%
CC(C)(C)NC(=O)c1ccccc1C[C@@H](O)[C@H](Cc1ccccc1)NC(=O)[C@H](CC(=O)OCc1ccccc1)NC(=O)C(F)(F)F,,fluorescence,0.02 µg/mL,52%
CC[C@H](C)[C@H](NC(=O)[C@H](Cc1ccccc1)NC[C@H](Cc1ccccc1)NC(=O)OC(C)(C)C)C(=O)N[C@@H](Cc1ccccc1)C(=O)OC,,,10 µM,42%
CC(C)[C@H](NC(=O)[C@@H](NC(=O)[C@@H]1CCCN1C(=O)[C@@H](O)[C@H](Cc1ccccc1)NC(=O)[C@H](CC(N)=O)NC(=O)CCc1ccccc1)C(C)C)C(N)=O,,,5 µM,92.8%
CCOC(=O)[C@@]1(C)CC[C@]2(C)CC[C@]3(C)C(=CC(=O)[C@@H]4[C@@]5(C)CC/C(=N\OCc6ccc(-c7ccccc7)cc6)C(C)(C)[C@@H]5CC[C@]43C)[C@@H]2C1,,substrate cleavage / fluorescence,1000 µg/mL,20.3%
COc1c(O)cc([C@H]2Oc3c(c(O)cc(O)c3C3c4c(O)cc(O)cc4O[C@H](c4ccc(O)c(O)c4)[C@@H]3O)C[C@H]2O)cc1O,IIIB,HPLC,100 µg/mL,30.5%
Cc1cn([C@@H]2C[C@@H](N=[N+]=[N-])[C@H](COC(=O)C(C)C(C)C(=O)N[C@@H](Cc3ccccc3)[C@H](O)C(=O)N3CSC[C@H]3C(=O)NC(C)(C)C)O2)c(=O)[nH]c1=O,,,5 µM,26%
CC(C)C[C@H](NC(=O)[C@@H](NC(=O)CCCCCCCCCCCCCCC(=O)N[C@@H](CC(N)=O)C(=O)N[C@@H](Cc1ccccc1)C(=O)O)C(C)O)C(=O)N[C@@H](Cc1ccc(O)cc1)C(=O)O,,,5.5 µM,40%
Cc1c(O)cccc1C(=O)N[C@@H](Cc1ccccc1)[C@H](O)C(=O)N1CSC(C)(C)[C@H]1C(=O)NCCCN1CCOCC1,NL4-3,fluorescence,0.064 µM,0%
OC(CCc1ccc2ccccc2c1)c1cnc2sc3c(n12)CCCCC3,,fluorescence,10 µM,94%
CC(=O)N[C@@H](CSc1ccccc1)C(=O)N[C@@H](Cc1ccccc1)[C@H](O)Cc1ccccc1C(=O)NC(C)(C)C,,fluorescence,1 µg/mL,8%
Cc1cc(C)[n+](C[n+]2[nH]c(C)cc2C)[nH]1.[Cl-].[Cl][Au-]([Cl])([Cl])[Cl],,substrate cleavage,100 µM,62.7%
COc1ccc(C2C3(CO)C4N(C(=O)Cc5ccccc5)C5C2(CO)C2N(C(=O)Cc6ccccc6)C3C4(CO)C(c3ccc(OC)cc3)C52CO)cc1,,,50 µM,18%
CC(C)(C)OC(=O)N[C@H]1CC(=O)NCCNC(=O)C[C@@H](C(N)=O)NC(=O)[C@H](Cc2ccccc2)NCC(O)[C@H](Cc2ccccc2)NC1=O,,,10 µM,18%
OC(CCc1cccc(F)c1)c1cnc2sc3c(n12)CCCCC3,,fluorescence,10 µM,75%
CC(C)(C)NC(=O)[C@H]1N(C(=O)[C@@H](O)[C@H](Cc2ccccc2)NC(=O)c2ccccc2C(=O)NCc2cccnc2)CSC1(C)C,,HPLC,5 µM,12.6%
CCOC(=O)[C@@]1(C)CC[C@]2(C)CC[C@]3(C)C(=CC(=O)[C@@H]4[C@@]5(C)CC/C(=N\OCc6cccc(Cl)c6)C(C)(C)[C@@H]5CC[C@]43C)[C@@H]2C1,,substrate cleavage / fluorescence,1000 µg/mL,12.4%
CC(C)(C)NC(=O)[C@@H]1CSCN1C(=O)[C@@H](O)[C@H](Cc1ccccc1)NC(=O)CCCC(=O)O,,,5 µM,82%
CC[C@H](C)[C@H](NC(=O)[C@H](Cc1ccccc1)NCC(O)[C@H](Cc1ccccc1)NC(=O)OCc1ccccc1)C(=O)N[C@@H](Cc1ccccc1)C(=O)OC,,,10 µM,67%
COc1cccc2cc(C(=O)N[C@@H](Cc3ccccc3)[C@H](O)C(=O)N3CSC(C)(C)[C@H]3C(=O)NC(C)(C)C)oc12,,HPLC,5 µM,21.1%
CCOC(=O)[C@@]1(C)CC[C@]2(C)CC[C@]3(C)C(=CC(=O)[C@@H]4[C@@]5(C)CC/C(=N\OCc6cccc(C)c6)C(C)(C)[C@@H]5CC[C@]43C)[C@@H]2C1,,substrate cleavage / fluorescence,1000 µg/mL,4.51%
CC[C@@H](C)[C@H](NC(=O)[C@@H]1CCCN1C(=O)[C@@H](O)[C@H](Cc1ccccc1)NC(=O)[C@H](CCC(N)=O)NC(=O)CCc1ccccc1)C(=O)N[C@H](C(N)=O)C(C)C,,,5 µM,79.4%
COc1c(O)cc([C@H]2Oc3cc(O)cc(O[C@@H]4O[C@H](CO)[C@@H](O)[C@H](O)[C@H]4O)c3C[C@H]2O)cc1O,IIIB,HPLC,100 µg/mL,72.9%
COc1cc(O)cc(O)c1C(=O)/C=C/c1ccc(O)cc1,,HPLC,100 µM,14.1%
Cc1ccccc1CNC(=O)[C@H]1N(C(=O)[C@@H](O)[C@H](Cc2ccccc2)NC(=O)c2ccccc2NC(=O)OCc2ccccc2)CSC1(C)C,,HPLC,5 µM,98.3%
CO[C@H]1[C@H](OCc2ccccc2)[C@@H](O)[C@H](Oc2ccccc2)O[C@@H]1CNC(=O)[C@@H](NC(=O)OC(C)(C)C)C(C)C,,,100 µM,11%
CC(C)(C)NC(=O)c1ccccc1C[C@@H](O)[C@H](Cc1ccccc1)NC(=O)[C@H](Cc1ccccc1)NC=O,,fluorescence,1 µg/mL,8%
CC(C)(C)OC(=O)N[C@@H](Cc1ccccc1)[C@H](O)C(=O)N1CCC[C@H]1C(=O)N[C@@H](CCC(N)=O)C(=O)NCC1CCCCC1,,,1000 µM,37.1%
O=C(Oc1ccccc1)N1C2C3(CO)C(c4ccccc4)C4(CO)C1C1(CO)C(c5ccccc5)C2(CO)C3N(C(=O)Oc2ccccc2)C41,,,25 µM,17%
CC(C)(C)C(=O)OC[C@H]1O[C@@H](Oc2ccccc2)[C@H](O)[C@@H](OC(=O)C(C)(C)C)[C@@H]1O,,,100 µM,24%
NC(=O)C[C@H](NC(=O)OCc1ccccc1)C(=O)N[C@@H](Cc1ccccc1)[C@H](O)C(=O)N1CCC[C@H]1C(N)=O,,,0.05 µM,25.8%
CC(C)(C)NC(=O)[C@H]1N(C(=O)[C@@H](O)[C@H](Cc2ccccc2)NC(=O)c2ccccc2NC(=O)OCc2ccccc2)CSC1(C)C,,HPLC,5 µM,89.9%
CC(C)C[C@H](NC(=O)[C@@H](NC(=O)CCCCCCCCCCCCCCC(=O)N[C@@H](CCCCN)C(=O)N[C@@H](Cc1ccccc1)C(=O)O)C(C)O)C(=O)N[C@@H](Cc1ccccc1)C(N)=O,,,5.5 µM,35%
CC(C)(C)NC(=O)[C@H]1N(C(=O)[C@@H](O)[C@H](Cc2ccccc2)NC(=O)[C@H](CC(N)=O)NC(=O)COc2cccc3cccnc23)CSC1(C)C,,,0.05 µM,55.9%
CC[C@H](C)[C@H](NC(=O)[C@H](Cc1ccccc1)NCC(O)[C@H](Cc1ccccc1)NC(=O)OC(C)(C)C)C(=O)N[C@@H](Cc1ccccc1)C(=O)OC,,,10 µM,64%
CCOC(=O)[C@@]1(C)CC[C@]2(C)CC[C@]3(C)C(=CC(=O)[C@@H]4[C@@]5(C)CC/C(=N\OCc6cc(Br)cc(Br)c6)C(C)(C)[C@@H]5CC[C@]43C)[C@@H]2C1,,substrate cleavage / fluorescence,1000 µg/mL,33.6%
Cc1sc2ncc(C(O)CCCc3ccccc3)n2c1C,,fluorescence,10 µM,100%
CS(=O)(=O)C[C@H](NC(=O)COc1cccc2ccccc12)C(=O)N[C@@H](Cc1ccccc1)[C@H](O)C(=O)N1CSC[C@H]1C(=O)NC(CO)c1ccccc1,,,0.05 µM,5.5%
CC(=O)NC(C(=O)NC[C@H]1O[C@@H](Oc2ccccc2)[C@H](O)[C@@H](OCc2ccccc2)[C@@H]1O)C(C)C,,,100 µM,14%
Cc1ccccc1CNC(=O)[C@H]1N(C(=O)[C@@H](O)[C@H](Cc2ccccc2)NC(=O)c2ccccc2C(=O)NCc2ccncc2)CSC1(C)C,,HPLC,5 µM,64.8%
O=C(Cc1ccccc1)N1C2C3(CO)C(c4ccccc4)C4(CO)C1C1(CO)C(c5ccccc5)C2(CO)C3N(C(=O)Cc2ccccc2)C41,,,50 µM,52%
CCOC(=O)[C@@]1(C)CC[C@]2(C)CC[C@]3(C)C(=CC(=O)[C@@H]4[C@@]5(C)CC/C(=N\OCc6cc(C)cc(C)c6)C(C)(C)[C@@H]5CC[C@]43C)[C@@H]2C1,,substrate cleavage / fluorescence,1000 µg/mL,2.25%
COc1ccc(C2C3(CO)C4N(C(C)=O)C5C2(CO)C2N(C(C)=O)C3C4(CO)C(c3ccc(OC)cc3)C52CO)cc1,,,25 µM,7%
CC(C)(C)OC(=O)N[C@H]1CCCCNC(=O)CCC(=O)NCCCC[C@@H](C(N)=O)NC(=O)[C@H](Cc2ccccc2)NC(=O)C[C@H](Cc2ccccc2)NC1=O,,,10 µM,3%
CC(C)(C)NC(=O)c1ccccc1C[C@@H](O)[C@H](Cc1ccccc1)NC(=O)[C@H](N)CSc1ccccc1,,fluorescence,1 µg/mL,3%
CC[C@H](C)[C@H](NC(=O)[C@@H]1CCCN1C(=O)[C@H](O)[C@H](Cc1ccccc1)NC(=O)[C@H](CO)NC(=O)Cc1ccccc1)C(=O)N[C@H](C(N)=O)C(C)C,,,1000 µM,97.2%
COc1ccc(C2C3(CO)C4N(C(=O)Oc5ccccc5)C5C2(CO)C2N(C(=O)Oc6ccccc6)C3C4(CO)C(c3ccc(OC)cc3)C52CO)cc1,,,50 µM,18%
CC(=O)C[C@H](NC(=O)COc1cccc2ccccc12)C(=O)N[C@@H](Cc1ccccc1)[C@H](O)C(=O)N1CSC[C@H]1C(=O)NC(C)(C)C,,,0.05 µM,27%
Cc1sc2ncc(C(O)CCc3ccccc3)n2c1C,,fluorescence,10 µM,100%
CC[C@H](C)[C@H](NC(=O)CN(O)C(=O)[C@H](Cc1ccccc1)NC(=O)OC(C)(C)C)C(=O)N[C@@H](Cc1ccccc1)C(=O)O,,,10 µM,13%
OC(CCc1ccccc1)c1cnc2sc3c(n12)CCCC3,,fluorescence,3.3 µM,100%
Oc1cc(O)c2c(c1)O[C@H](c1ccc(O)c(O)c1)[C@H](O)C2c1c(O)cc(O)c2c1O[C@H](c1cc(O)c(O)c(O)c1)[C@H](O)C2,IIIB,HPLC,100 µg/mL,33.3%
CC[C@@H](C)[C@H](NC(=O)[C@@H]1CCCN1C(=O)[C@@H](O)[C@H](Cc1ccccc1)NC(=O)[C@H](CC(N)=O)NC(=O)c1ccccn1)C(=O)N[C@H](C(N)=O)C(C)C,,,5 µM,93.6%
CC(C)C[C@H](NC(=O)[C@H](CC(C)C)NC(=O)[C@@H](NC(=O)CCCCCCCCCCCCCCC(=O)N[C@@H](CC(N)=O)C(=O)N[C@@H](Cc1ccccc1)C(=O)O)C(C)O)C(=O)O,,,5.5 µM,25%
COc1c(O)cc([C@H]2Oc3cc(O)cc(O)c3C[C@@H]2O)cc1O[C@@H]1O[C@H](CO)[C@@H](O)[C@H](O)[C@H]1O,IIIB,HPLC,100 µg/mL,68.2%

8 of the rows above, restated:

SMILES | strain | read by | tested at | value
COc1cc(O)cc(O)c1C(=O)/C=C/c1ccc(O)cc1 |  | HPLC | 100 µM | 14.1%
OC(CCc1cccc(F)c1)c1cnc2sc3c(n12)CCCCC3 |  | fluorescence | 10 µM | 75%
CC(C)C[C@H](NC(=O)[C@@H](NC(=O)CCCCCCCCCCCCCCC(=O)N[C@@H](CC(N)=O)C(=O)N[C@@H](Cc1ccccc1)C(=O)O)C(C)O)C(=O)N[C@@H](Cc1ccc(O)cc1)C(=O)O |  |  | 5.5 µM | 40%
CC[C@@H](C)[C@H](NC(=O)[C@@H]1CCCN1C(=O)[C@@H](O)[C@H](Cc1ccccc1)NC(=O)[C@H](CC(N)=O)NC(=O)c1ccccn1)C(=O)N[C@H](C(N)=O)C(C)C |  |  | 5 µM | 93.6%
O=C(Cc1ccccc1)N1C2C3(CO)C(c4ccccc4)C4(CO)C1C1(CO)C(c5ccccc5)C2(CO)C3N(C(=O)Cc2ccccc2)C41 |  |  | 50 µM | 52%
CC(C)(C)NC(=O)c1ccccc1C[C@@H](O)[C@H](Cc1ccccc1)NC(=O)[C@H](N)CSc1ccccc1 |  | fluorescence | 1 µg/mL | 3%
CC(C)(C)OC(=O)N[C@@H](Cc1ccccc1)[C@H](O)C(=O)N1CCC[C@H]1C(=O)N[C@@H](CCC(N)=O)C(=O)NCC1CCCCC1 |  |  | 1000 µM | 37.1%
NC(=O)C[C@H](NC(=O)OCc1ccccc1)C(=O)N[C@@H](Cc1ccccc1)[C@H](O)C(=O)N1CCC[C@H]1C(N)=O |  |  | 0.05 µM | 25.8%